{
  "source": "paper PMC4592236",
  "about": "“Pathogen- and Host-Directed Antileishmanial Effects Mediated by Polyhexanide (PHMB)” (PLoS Neglected Tropical Diseases, 2015)",
  "test_system": "intracellular L. major amastigotes",
  "format": "cell-based, Leishmania major",
  "procedure": "The assay is based on bioluminescence measurement of firefly luciferase, which catalyzes the formation of light from ATP and luciferin. The virulent luciferase-transgenic (Luc-tg) L. major strain containing a firefly luciferase reporter gene was maintained by continuous passage in female BALB/c mice and was grown in 96-well blood agar cultures at 27°C, 5% CO2, and 95% humidity. A luciferase-transgenic L. major strain was used to infect BMDM according to our recently established protocol. Briefly, BMDM numbers were adjusted to 2 × 10^5, cultured in 96-well plates and incubated for 4 h to allow adherence to the surface. The promastigote number was adjusted to 3 × 10^6 parasites per ml to achieve an infection rate of 1:15. Then, infection was made by discarding the supernatant of the cultured cells and replacing it with an equal volume of complete RPMI medium containing the promastigotes' suspension. After incubating the infected BMDM (37°C, 5% CO2) for 24 h to allow full differentiation of the promastigotes into amastigotes, the medium containing the extracellular parasites was removed and the wells were washed three times with the same RPMI medium. Five serial dilutions of each substance (1:5) in the same fresh RPMI medium were added to the infected BMDM in duplicate with the appropriate controls. After further 24 h of incubation at 37°C and 5% CO2, the infected BMDM were lysed with a luciferin-containing buffer (Britelite, PerkinElmer, Germany) and luminescence was measured with a luminescence plate reader, Victor X Light 2030 luminometer (PerkinElmer). The IC50 values of the compounds against intracellular amastigotes were calculated based on the intercept theorem, as previously described.",
  "note": "Like-named read-outs stand apart in the source and are kept apart here.",
  "data": [
    {"smiles": "N=C(N)c1ccc(OCCCCCOc2ccc(C(=N)N)cc2)cc1", "note": "[Pentamidine, pentamidine isothionate]", "values": [
      {"measurement": "SI amastigotes", "value": 20}
    ]},
    {"smiles": "C[C@@H]1[C@H](O)[C@@H](C)/C=C/C=C/C=C/C=C/C=C/C=C/C=C/[C@H](O[C@@H]2O[C@H](C)[C@@H](O)[C@H](N)[C@@H]2O)C[C@@H]2O[C@](O)(C[C@@H](O)C[C@@H](O)[C@H](O)CC[C@@H](O)C[C@@H](O)CC(=O)O[C@H]1C)C[C@H](O)[C@H]2C(=O)O", "note": "[Amphotericin B, amphotericin B]", "values": [
      {"measurement": "SI amastigotes", "value": ">208"}
    ]},
    {"smiles": "CCCCCCCCCCCCCCCCOP(=O)([O-])OCC[N+](C)(C)C", "note": "[Miltefosine, 1-hexadecylphosphorylcholine]", "values": [
      {"measurement": "SI amastigotes", "setting": "mean IC50 against BMDM / mean IC50 against L. major amastigotes", "value": 1.4}
    ]}
  ]
}
